A mixed list of measured activities; the numbers were collected in NIAID ChemDB.

Shared fields: enzyme or target tests; species: Hepatitis C virus

An empty or dashed field is not shown. Rows are shuffled and stem from different studies. Inhibition is in % at the dose shown (toxicity tests: loss of growth or viability). ICn is the concentration giving n% inhibition. a–b is a range or a potency band.

{"structure": "O=S(=O)(Nc1cnn2c(C3CCCCC3)c(-c3ccc(OCc4ccccc4)cc3)cnc12)c1ccsc1", "measure": "IC50", "protein": "RNA-dependent RNA polymerase", "value": ">10 µM"}
{"structure": "CNC(=O)c1c(-c2ccc(F)cc2)oc2cc(-c3ncc[nH]3)c(OC(C)C)cc12", "measure": "IC50", "protein": "Nonstructural protein 5B", "value": "≤0.5 µM"}
{"structure": "O=C(O)c1nc(-c2sccc2NS(=O)(=O)Cc2ccccc2)[nH]c(=O)c1O", "measure": "IC50", "protein": "HCV polymerase", "value": "<25 µM"}
{"structure": "OCc1cnn2c(C3CCCCC3)c(-c3ccc(OCc4ccccc4)cc3)cnc12", "measure": "IC50", "protein": "RNA-dependent RNA polymerase", "value": ">10 µM"}
{"structure": "NC(C(=O)Nc1ccsc1-c1nc(C(=O)O)c(O)c(=O)[nH]1)c1cc(F)ccc1F", "measure": "IC50", "protein": "HCV polymerase", "value": "<25 µM"}
{"structure": "O=C(NC(Cc1c[nH]c2ccc(O)cc12)C(=O)O)c1ccc2c(c1)nc(-c1ccc3ncc(-c4ccccc4)cc3c1)n2C1CCCCC1", "tested at": "33 µM", "measure": "inhibition", "protein": "NS5B polymerase", "value": "97.6%"}
{"structure": "O=C(O)c1sc(-c2ccccc2)cc1NS(=O)(=O)c1ccccc1[N+](=O)[O-]", "measure": "IC50", "protein": "NS3 ATPase", "value": "<5 µM"}
{"structure": "COc1ccc(-c2ccc(C)cc2)c(-c2ccc3cc(-c4nc5cc(C(=O)O)ccc5n4C4CCCCC4)ccc3n2)c1", "tested at": "100 µM", "measure": "inhibition", "protein": "NS5B polymerase", "value": "99.6%"}
{"structure": "O=C(Nc1cccc(-c2nc(C(=O)O)c(O)c(=O)[nH]2)c1)Nc1c(Cl)cncc1Cl", "measure": "IC50", "protein": "HCV polymerase", "value": "<100 µM"}
{"structure": "CCOc1ccc2oc(-c3ccc(Cl)s3)c(C(=O)NC)c2c1", "measure": "IC50", "protein": "Nonstructural protein 5B", "value": "≤0.5 µM"}
{"structure": "C=CCN(C(=O)Cc1ccc(Cl)c(Cl)c1)c1cc(-c2ccccc2)sc1C(=O)O", "measure": "IC50", "protein": "NS3 ATPase", "value": "5–20 µM"}
{"structure": "O=C(NCc1cccc(Cl)c1)Nc1ccsc1-c1nc(C(=O)O)c(O)c(=O)[nH]1", "measure": "IC50", "protein": "HCV polymerase", "value": "<25 µM"}
{"structure": "O=C(O)c1ccc2c(c1)nc(-c1ccc3nc(-c4cc(OCCCN5CCCC5)ccc4-c4ccccc4)ccc3c1)n2C1CCCCC1", "tested at": "33 µM", "measure": "inhibition", "protein": "NS5B polymerase", "value": "98.02%"}
{"structure": "Cc1ccc(C(=O)N(C)c2cc(-c3cc(F)cc(F)c3)sc2C(=O)O)cc1", "measure": "IC50", "protein": "NS3 ATPase", "value": "<5 µM"}
{"structure": "O=C(NCCc1ccccc1)Nc1cscc1-c1nc(C(=O)O)c(O)c(=O)[nH]1", "measure": "IC50", "protein": "HCV polymerase", "value": "<25 µM"}
{"structure": "O=C(N[C@@H](Cc1c[nH]c2ccccc12)C(=O)O)c1cc2nc(-c3cccc(F)c3)c(C3CCCCC3)c(=O)n2[nH]1", "measure": "IC50", "protein": "RNA-dependent RNA polymerase", "value": "<1 µM"}
{"structure": "O=C(O)c1sc(-c2ccccc2)cc1NC(=O)N1CCC2(CC1)C(=O)NCN2c1ccccc1", "measure": "IC50", "protein": "NS3 ATPase", "value": "<5 µM"}
{"structure": "Cc1cc(Cl)cc(Cl)c1CNC(=O)Nc1ccccc1-c1nc(C(=O)O)c(O)c(=O)[nH]1", "measure": "IC50", "protein": "HCV polymerase", "value": "<100 µM"}
{"structure": "CNC(=O)c1c(-c2ccc(F)cc2)oc2cc(N(C)S(C)(=O)=O)c(-c3cccs3)cc12", "measure": "IC50", "protein": "Nonstructural protein 5B", "value": "≤0.5 µM"}
{"structure": "CC(C)N(C(=O)c1ccc(Cl)cc1F)c1cc(-c2ccccc2)sc1C(=O)O", "measure": "IC50", "protein": "NS3 ATPase", "value": "<5 µM"}
{"structure": "O=C(O)c1ccc2c(c1)nc(-c1ccc3nc(-c4ccc5c(c4)CCO5)ccc3c1)n2C1CCCCC1", "tested at": "100 µM", "measure": "inhibition", "protein": "NS5B polymerase", "value": "97.15%"}
{"structure": "COc1ccc(-c2nc3cc(C(=O)O)nn3cc2C2CCCCC2)cc1", "measure": "IC50", "protein": "RNA-dependent RNA polymerase", "value": ">10 µM"}
{"structure": "O=C(O)COc1cccc(-c2ccc3cc(-c4nc5cc(C(=O)O)ccc5n4C4CCCCC4)ccc3n2)c1", "tested at": "100 µM", "measure": "inhibition", "protein": "NS5B polymerase", "value": "99.6%"}
{"structure": "CNC(=O)c1c(-c2ccc(F)cc2)oc2cc(N(Cc3cccc(CBr)n3)S(C)(=O)=O)c(OCc3cccc(CBr)n3)cc12", "measure": "IC50", "protein": "Nonstructural protein 5B", "value": "≤0.5 µM"}
{"structure": "O=C(c1ccc2c(c1)nc(-c1cc3ccc(-c4ccccc4-c4ccccc4)nc3cc1F)n2C1CCCCC1)N1CCC(O)CC1", "tested at": "33 µM", "measure": "inhibition", "protein": "NS5B polymerase", "value": "84.34%"}
{"structure": "Cc1ccccc1S(=O)(=O)Nc1cc(-c2ccc(O)cc2)sc1C(=O)O", "measure": "IC50", "protein": "NS3 ATPase", "value": "<5 µM"}
{"structure": "CC(C)=CC1C(C(=O)Nc2ccsc2-c2nc(C(=O)O)c(O)c(=O)[nH]2)C1(C)C", "measure": "IC50", "protein": "HCV polymerase", "value": "<25 µM"}
{"structure": "CNC(=O)c1c(-c2ccc(F)cc2)oc2cc(N(C)S(C)(=O)=O)c(OCc3cccc(C#N)c3)cc12", "measure": "IC50", "protein": "Nonstructural protein 5B", "value": "≤0.5 µM"}
{"structure": "Cc1ccc(C(=O)N(C)c2cc(-c3cccc(C#N)c3)sc2C(=O)O)cc1", "measure": "IC50", "protein": "NS3 ATPase", "value": "<5 µM"}
{"structure": "CNC(=O)c1c(-c2ccc(F)cc2)oc2cc(-c3c(C)n[nH]c3C)c(OC)cc12", "measure": "IC50", "protein": "Nonstructural protein 5B", "value": "≤0.5 µM"}
{"structure": "O=C(O)c1cnn2c(C3CCCCC3)c(-c3ccc(F)cc3)cnc12", "measure": "IC50", "protein": "RNA-dependent RNA polymerase", "value": "1–10 µM"}
{"structure": "Cc1ccc(C(=O)N(c2cc(-c3ccc(F)cc3)sc2C(=O)O)C(C)C)cc1", "measure": "IC50", "protein": "NS3 ATPase", "value": "<5 µM"}

The last 4 rows once more:

structure | tested at | measure | protein | value
Cc1ccc(C(=O)N(C)c2cc(-c3cccc(C#N)c3)sc2C(=O)O)cc1 |  | IC50 | NS3 ATPase | <5 µM
CNC(=O)c1c(-c2ccc(F)cc2)oc2cc(-c3c(C)n[nH]c3C)c(OC)cc12 |  | IC50 | Nonstructural protein 5B | ≤0.5 µM
O=C(O)c1cnn2c(C3CCCCC3)c(-c3ccc(F)cc3)cnc12 |  | IC50 | RNA-dependent RNA polymerase | 1–10 µM
Cc1ccc(C(=O)N(c2cc(-c3ccc(F)cc3)sc2C(=O)O)C(C)C)cc1 |  | IC50 | NS3 ATPase | <5 µM